In US20130310452A1, “ANTIFUNGAL FLAVOURING INGREDIENTS AND COMPOSITIONS” (FIRMENICH SA, priority 2011, published 2013):

Test system: main fungi responsible for beverage and food spoilage (yeast and mould strains)
Experiment: Growth inhibition of yeast and mould strains in 105 g/L sucrose solution (OD after 21 days)
Format: cell-based
Settings: sucrose solution at pH 3; concentrations of 1000 ppm or less; OD below 0.2 after 21 days at 25° C.; 16 strains tested
Procedure: The antifungal activity of various flavouring ingredients was evaluated against the following yeast strains: Zygosaccharomyces rouxii (DSM70835), Pichia membranaefaciens (DSM 70369), Dekkera Bruxellensis (DSM70726), Saccharomyces cerevisiae (DSM 70869) and Candida krusei (origin: Leatherhead Food Research) and against the following moulds strains: Byssochlamys nivea, Fusarium solani, Aspergillus fumigatis, Byssochlamys fulva, Aspergillus niger, Talaromyces Harzanium, Penicillium crustosum, Penicillium digitatum, Neosartorya fischeri, Penicillium roquerforti, Fusarium oxysporum.
A 105 g/L solution of sucrose in water at pH 3±0.2 was prepared. Another sucrose solution at the same concentration at pH 5±0.2 was also prepared. The sucrose solutions were autoclaved at 121° C. for 15 minutes and the pH was re-checked to ensure it remained within the range.
Test samples were then prepared in microtiter plates. An amount of 100 μL of sucrose solution prepared above, were mixed with an inoculum of 20 μL of one fungal strain, so as to achieve a microbial level comprised between 10^2 and 10^3 cfu/mL.
The flavouring ingredient or composition was then added to the microtiter plate. […]
The optical density (OD) of each sample was measured after 21 days of incubation using a Bio-Tek Synergy™ HT Multi-Mode Microplate Reader (from Labtech International, UK). […]

Question: `Cc1ccc(O)cc1C` was tested. Which “number of the main fungi responsible for beverage and food spoilage against which there is a strong antifungal effect” value did it give?
Answer: 3
